Measured values from publication PMC12656920.
Construct, isoform or probe ends are uncertain for at least one entry. At least one verdict rests on a figure or table, not on a statement of the authors.

Amino acid sequences for entries named in this document (tags omitted). Residues count along the entry.
UniProt P03300, 1566-1748: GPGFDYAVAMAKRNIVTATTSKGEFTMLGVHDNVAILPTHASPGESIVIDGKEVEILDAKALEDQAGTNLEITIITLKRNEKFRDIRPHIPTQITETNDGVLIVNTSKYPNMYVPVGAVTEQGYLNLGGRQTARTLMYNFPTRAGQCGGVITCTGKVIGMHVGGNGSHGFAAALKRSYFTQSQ

Each sequence was assayed against PV-3C main protease (Poliovirus) (UniProt P03300) (assay: NMR (CSP)). Conditions: recombinant protein; protein details: SUMO tag cleaved by ULP-1, 15N-labeled for NMR.
CUACCUCAGUCGAAU [RNA-8]: binds.
UUUUUUUUUUUUUUU [RNA-3]: binds.
CGUUGGCUUGACUCA [RNA-9]: binds.
CGCAGCAAACACAAG [RNA-7]: binds.
AAAAAAAAAAAAAAA [RNA-6]: binds.
GAUUGGGUCAUACUGUUGUAG [RNA-12]: binds.
UUUUCUUUAAUUCGGAGAAAA [RNA-14]: binds.
CAGAGGAACACGUGGCGGCG [RNA-13]: binds.
GGGGUUGUACCCACCCC [RNA-10]: binds.
AGUUCAAGAGC [RNA-15]: binds.
CCAUCAAGAAUCCUA [RNA-5]: binds.
ACCCCAGAGGCCCAC [RNA-4]: binds.
CUCCGGUAUUGCGGUACCCUUG [RNA-11]: binds.
